Source: PubChem BioAssay AID624099 (ICCB-Longwood, 2012)

Screen: 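Knock-downs relieving repression by E2 of an HPV18 LCR luciferase reporter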 (primary screen)
System: human C33A cervical carcinoma cells (HPV-negative) stably expressing BPV1 E2 and an HPV18 LCR luciferase reporter
Knock-down reagent: siRNA pool against human genes, 40 nM
Timing: 72 h
Measurement: 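Per-well luciferase luminescence, z-scored on each plate against the plate mean and SD with control wells left out, then averaged across three replicate plates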
Reading the numbers: mean z-score and z-score: higher = stronger reporter signal, weaker E2 silencing
Hit rule: 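Mean z ≥ 2 together with z ≥ 2 in two or more of the three replicates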
The deposit covers about 21,000 reagents; below is a part drawn at random. 497 of them (2.4%) were called active. 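Higher z means weaker E2 silencing; only reporter increases were scored, and knock-downs that hurt cell survival may mask genuine repressor factors.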 Entries without a mark were called inactive.

gene	mean z-score	z-score, replicate A	z-score, replicate B	z-score, replicate C
NWD2	-1.45	-1.5	-1.39	-1.46
MIEF1	1.51	1.3	1.57	1.67
USP39	1.42	1.82	1.41	1.04
GPBP1L1	-0.65	-0.23	-0.66	-1.07
LOC400921 (retired record)	0.07	0.22	0.27	-0.29
SLC16A5	-0.61	-0.39	-0.61	-0.82
MCOLN3	1.39	1.45	1.56	1.17
ASB11	-0.72	-0.36	-0.77	-1.03
NKAIN4	1.62	1.77	1.45	1.63
PRKCG	0.02	-0.15	0.08	0.14
SLC24A2	0.56	0.35	0.59	0.72
BTNL9	0.17	0.33	-0.15	0.33
DENND4A	-1.56	-1.28	-1.83	-1.55
RUVBL2	-0.3	-0.55	-0.35	0.01
C1orf56	1.12	0.77	1.14	1.44
SCMH1	-0.82	-0.8	-0.68	-0.98
UNQ9370 (retired record)	-0.31	-0.36	-0.24	-0.32
TSPAN31	-0.72	-0.88	-0.74	-0.55
TMEM41A	-0.24	-0.29	-0.35	-0.07
SLC24A4	0.25	0.63	0.19	-0.08
RAD51	1.77	1.49	1.77	2.05
NUP214	-0.05	-0.05	-0.31	0.22
ADPRS	-0.29	-0.02	-0.64	-0.2

Looked up above.
Under “z-score, replicate B”, BTNL9 reads -0.15
ASB11, z-score, replicate A: -0.36
